Pooled drug test results. Numbers come from NIAID ChemDB, via PubChem.

All rows: tests in culture; species: HIV-1

ECn: concentration that inhibits the pathogen or its effect by n%. An empty or dashed field is not shown. Rows are shuffled and stem from different studies.

structure,strain or isolate,read-out,cell line,read by,mutations,setting,result
Cc1cn([C@H]2C[C@H](N=[N+]=[N-])[C@@H](CO)O2)c(=O)[nH]c1=O,JR-CSF,EC50,PBL,,,,<1 µM
Cc1cn([C@H]2C=C[C@@H](CO)O2)c(=O)[nH]c1=O,,EC50,MT-2,cytopathic effect / MTT,RT-Q151M A62V,,>50 µM
CCOC(=O)[C@H](C)N[P@](=O)(CO[C@@H]1C=C(F)[C@H](n2cnc3c(N)ncnc32)O1)Oc1ccccc1,,EC50,Macrophages,p24 / ELISA / antigen,,,0.051 µM
CCc1cc(NCc2nc3c(Cl)ccc(Cl)c3o2)c(=O)[nH]c1C,MF,EC50,MT-4,antigen,,,~0.06 µM
CC(=O)c1ccc2ccc(/C=C/c3cc(O)c(O)c(O)c3)nc2c1O,,EC50,TZM-bl,luminescence,,,0.3 µM
O=c1[nH]cnc2c1ncn2[C@H]1CC[C@@H](CO)O1,IIIB,EC50,PBMC,p24,,,<7.5 µM
CC(C)(C)CNC(=O)[C@@H]1CN(C(C)(C)c2cc3cnccc3o2)CCN1C[C@@H](O)C[C@@H](Cc1ccccc1)C(=O)N[C@H]1c2ccccc2OC[C@H]1O,NL4-3,EC95,MT-4,p24,,,0.031 µM
COc1ccc(CN[C@@H](C(=O)N[C@H](C(=O)NCc2nc3ccccc3[nH]2)C(C)C)[C@H](O)[C@H](Cc2ccccc2)NC(=O)[C@@H](NC(=O)OCc2ccccc2)C(C)(C)C)cc1,IIIB,EC50,MT-4,cytopathic effect,,,0.012 µM
Cc1cn([C@H]2C[C@H](N=[N+]=[N-])[C@@H](COP(=O)(O)C(=O)OCCSC(=O)C(C)(C)C)O2)c(=O)[nH]c1=O,LAI,EC50,CEM + CEM TK-,RT activity,,,53 µM
COc1cc(C#N)cc(C(=O)c2cc(Cl)ccc2OCC(=O)Nc2ccc(S(N)(=O)=O)cc2C)c1,,EC50,HeLa,,WTRVA,,0.00009 µM
COc1cc(NC(=O)c2ccc3ccc(C(C)=O)c(O)c3n2)cc(O)c1O,,EC50,TZM-bl,luminescence,,,6.5 µM
Cc1cc(C)c(-n2nnnc2SCC(=O)Nc2ccc([N+](=O)[O-])cc2C)c(C)c1,,EC50,MT-4,p24,,,<10 µM
Cc1cn(C2CC(N=[N+]=[N-])C(COP(=O)(OC[C@H]3O[C@@H](n4cc(C)c(=O)[nH]c4=O)C[C@@H]3N=[N+]=[N-])C(=O)OCCSC(=O)C(C)(C)C)O2)c(=O)[nH]c1=O,IIIB,EC50,MT-4,cytopathic effect / MTT,,,0.0025 µM
Cc1cc(S(N)(=O)=O)ccc1NC(=O)COc1ccc(Cl)cc1C(=O)c1cc(C#N)cc(N(C)C)c1,,EC50,HeLa,,WTRVA,,0.0006 µM
CC(C)(C)OC(=O)N[C@@H](Cc1ccccc1)[C@H](O)CNC[C@@H](O)[C@H](Cc1ccc(OCC(=O)N2CCOCC2)cc1)NC(=O)OC(C)(C)C,RF,EC50,,,,,0.097 µM
O=C1Nc2ccccc2S(=O)(=O)N1,IIIB,EC50,CEM + CEM-SS,cytopathic effect / XTT,,,>1260 µM
Cc1cc(C)c(-n2nnnc2SCC(=O)Nc2ccccc2OC(F)F)c(C)c1,,EC50,MT-4,p24,,,<10 µM
Nc1ncnc2c1ncn2[C@@H]1O[C@H](OCP(=O)(O)O)C=C1F,IIIB,EC50,MT-2,ATP,,,10.6 µM
CCOC(=O)c1cc(C#N)cc(C(=O)c2cc(Cl)ccc2OCC(=O)Nc2ccc(S(N)(=O)=O)cc2C)c1,,EC50,HeLa,,WTRVA,,0.0009 µM
CC(C)(c1cc2cnccc2o1)N1CCN(C[C@@H](O)C[C@@H](Cc2ccccc2)C(=O)N[C@H]2c3ccccc3OC[C@H]2O)[C@H](C(=O)Nc2ccccc2)C1,NL4-3,EC95,MT-4,p24,,,0.25 µM
O=c1[nH]cnc2c1ncn2[C@H]1CC[C@@H](CO)O1,HXB2-D294 (RT-P294S),EC50,MT-4,RT activity,RT-P294S,,6.9 µM
Cc1cc(C)c(-n2nnnc2SCC(=O)Nc2ccc(C)cc2Br)c(C)c1,,EC95,MT-4,p24,,,<10 µM
CC(C)(c1cc2cnccc2o1)N1CCN(C[C@@H](O)C[C@@H](Cc2ccccc2)C(=O)N[C@H]2c3ccccc3OC[C@H]2O)[C@H](C(=O)NCc2ccccc2)C1,NL4-3,EC50,MT-4,p24,,,<0.125 µM
Oc1ccc(/C=C/c2cc(O)cc(O)c2)cc1,ddI-resistant (RT K65R/L74V/M184V),EC50,PBMC,p24,,,>5 µM
CC(C)c1ccccc1-n1nnnc1SCC(=O)Nc1ccccc1[N+](=O)[O-],,EC95,MT-4,p24,,,<10 µM
Cc1cc(S(N)(=O)=O)ccc1NC(=O)COc1ccc(Cl)cc1C(=O)c1cc(C#N)cc(OCF)c1,,EC50,HeLa,,V106A,,0.0084 µM
Cc1cc(C)c(-n2nnnc2SCC(=O)Nc2cccc3c2C(=O)NC3=O)c(C)c1,,EC95,MT-4,p24,,,<10 µM
Cc1cn([C@H]2C[C@H](N=[N+]=[N-])[C@@H](CO)O2)c(=O)[nH]c1=O,UG070,EC50,TZM-bl,luminescence,,,0.027 µM
Nc1nc(NC2CC2)c2ncn([C@H]3C=C[C@@H](CO)C3)c2n1,,EC50,MT-2,cytopathic effect / MTT,RT-Q151M A62V,,7 µM
O=C(CSc1nnnn1-c1ccccc1Br)Nc1ccccc1Cl,,EC95,MT-4,p24,,,<10 µM
CC(C)(c1cc2cnccc2o1)N1CCN(C[C@@H](O)C[C@@H](Cc2ccccc2)C(=O)N[C@H]2c3ccccc3OC[C@H]2O)[C@H](C(=O)NCCC(F)(F)F)C1,NL4-3,EC50,MT-4,p24,,,<0.062 µM
CC(=O)c1cc(C#N)cc(C(=O)c2cc(Cl)ccc2OCC(=O)Nc2ccc(S(N)(=O)=O)cc2C)c1,,EC50,HeLa,,V106A,,0.021 µM
COc1cc([N+](=O)[O-])ccc1NC(=O)CSc1nnnn1-c1c(C)cc(C)cc1C,,EC50,MT-4,p24,,,<10 µM
CC(C)c1nc(CN(C)C(=O)N[C@H](C(=O)N[C@@H](Cc2ccccc2)C[C@H](O)[C@H](Cc2ccccc2)NC(=O)OCc2cncs2)C(C)C)cs1,NL4-3,EC50,MT-4,p24,PR-I84V,,<0.8 µM
C[C@H](Cn1cnc2c(N)ncnc21)OCP(=O)(O)O,UG-92-024 (subtype D),EC50,PBMCs,p24 / ELISA / antigen,,4 d,3.9 µM
Nc1ncnc2c1ncn2C[C@@H](CO)OCP(=O)(O)O,IIIB,EC50,PBL,,,,>20 µM
Cc1cc(S(N)(=O)=O)ccc1NC(=O)COc1ccc(Cl)cc1C(=O)c1cc(C#N)cc([N+](=O)[O-])c1,,EC50,HeLa,,Y181C,,0.0015 µM
O=S1(c2ccccc2)=NC(=S)Nc2ccccc21,C,EC50,CEM + CEM-SS,cytopathic effect / XTT,,,4.16 µM
CC(C)OC(=O)OCOP(=O)(CO[C@H](C)Cn1cnc2c(N)ncnc21)OCOC(=O)OC(C)C,1391-4 high AZT resistance (RT D67 K70 T215),EC50,MT-2,p24,RT-D67 K70 T215,,0.006 µM
COc1ccc(CN[C@@H](C(=O)N[C@H](C(=O)NCc2nc3ccccc3[nH]2)C(C)C)[C@H](O)[C@H](Cc2ccccc2)NC(=O)[C@@H](NC(=O)[C@@](C)(O)c2ccccc2)C(C)(C)C)cc1,IIIB,EC50,MT-4,cytopathic effect,,,0.038 µM
CCCCCCCCOC(=O)P(=O)(OCc1ccc(Cl)cc1)OCc1ccc(Cl)cc1,IIIB,EC50,MT-4,cytopathic effect / MTT,,,>10 µM
CC(C)(c1cc2cnccc2o1)N1CCN(C[C@@H](O)C[C@@H](Cc2ccccc2)C(=O)N[C@H]2c3ccccc3OC[C@H]2O)[C@H](C(=O)NCC2CC2)C1,NL4-3,EC50,MT-4,p24,,,<0.046 µM
CC[C@@]1(O)C(=O)OCc2c1cc1n(c2=O)Cc2cc3cc(O)ccc3nc2-1,IIIB,EC50,C8166,syncytia,,,0.0334 µg/mL
COc1cccc2ccc(-c3nnc(-c4ccncc4)o3)nc12,VB59,EC50,TZM-bl,luminescence,,,125 µM
CCCCCCCCOC(=O)P(=O)(O)OC[C@H]1O[C@@H](n2cc(C)c(=O)[nH]c2=O)C[C@@H]1N=[N+]=[N-],LAI,EC50,CEM + CEM-SS,RT activity,,,0.03 µM
CC(C)(C)NC(=O)[C@@H]1CN(C(C)(C)c2cc3cnccc3o2)CCN1C[C@@H](O)C[C@@H](Cc1ccccc1)C(=O)N[C@H]1c2ccccc2OC[C@H]1O,NL4-3,EC50,MT-4,p24,,,<0.008 µM
Cc1cc(C)c(-n2nnnc2S(=O)CC(=O)Nc2ccccc2[N+](=O)[O-])c(C)c1,,EC50,MT-4,p24,,,<10 µM
Nc1ncnc2c1ncn2CC(CF)OCP(=O)(O)O,BaL,EC50,Macrophage + Monocytes/macrophages,,,,0.95 µM

The last 4 rows once more:

structure	strain or isolate	read-out	cell line	read by	mutations	setting	result
CCCCCCCCOC(=O)P(=O)(O)OC[C@H]1O[C@@H](n2cc(C)c(=O)[nH]c2=O)C[C@@H]1N=[N+]=[N-]	LAI	EC50	CEM + CEM-SS	RT activity			0.03 µM
CC(C)(C)NC(=O)[C@@H]1CN(C(C)(C)c2cc3cnccc3o2)CCN1C[C@@H](O)C[C@@H](Cc1ccccc1)C(=O)N[C@H]1c2ccccc2OC[C@H]1O	NL4-3	EC50	MT-4	p24			<0.008 µM
Cc1cc(C)c(-n2nnnc2S(=O)CC(=O)Nc2ccccc2[N+](=O)[O-])c(C)c1		EC50	MT-4	p24			<10 µM
Nc1ncnc2c1ncn2CC(CF)OCP(=O)(O)O	BaL	EC50	Macrophage + Monocytes/macrophages				0.95 µM